Measured values taken from PubChem BioAssay AID1053175 (ICCB-Longwood Screening Facility, Harvard Medical School, 2014).
Only a part is listed here, and it is no random draw. Active and inactive are the calls of the source.

Assay: E. coli growth inhibition, primary screen, OD600 (AID 1053175)
Settings: Escherichia coli growth, OD600, 23 h; active compounds read low
With `COc1cc(C(=O)NCC2(N3CCOCC3)CCCCC2)cc(Cl)c1OC(C)C` the OD600 absorbance was inactive: 0.691. For `O=[As](O)(O)c1cccnc1`, the OD600 absorbance was inactive: 0.702. In the case of `CS(=O)(=O)c1ccc(Cl)c(NC(=O)COC(=O)C(O)(c2ccccc2)c2ccccc2)c1`, the OD600 absorbance is reported as inactive: 0.728. With `COc1ccccc1OP(C)(=O)Nc1cccc(Br)c1` (stereo unspecified) the OD600 absorbance was inactive: 0.723. With `O=C(OC1CN2CCC1CC2)c1ccc(Cl)cc1` (stereo unspecified) the OD600 absorbance was inactive: 0.679. For `CC1C=CCP(=O)(Oc2ccccc2)O1` (stereo unspecified), the OD600 absorbance was inactive: 0.681. For `CCOC(=O)c1ccc(NP(C)(=O)Oc2cc(C)cc(C)c2)cc1` (stereo unspecified), the OD600 absorbance was inactive: 0.65. For `O=[As](O)(c1cccc(O)c1)c1cccc(O)c1`, the OD600 absorbance was inactive: 0.685. In the case of `Cc1cccc(OCC(=O)OC2CN3CCC2CC3)c1` (stereo unspecified), the OD600 absorbance is reported as inactive: 0.765. For `Cc1cc(C)cc(OP(C)(=O)Nc2ccc(C)cc2C)c1` (stereo unspecified), the OD600 absorbance was inactive: 0.671. In the case of `CCCOP(=S)(Nc1nc(N)cc(=O)[nH]1)OCCC`, the OD600 absorbance is reported as inactive: 0.687. With `Cc1ccc(C)c(NP(C)(=O)Oc2ccccc2)c1` (stereo unspecified) the OD600 absorbance was inactive: 0.73. For `CP(=O)(Nc1cccc(Br)c1)Oc1ccccc1` (stereo unspecified), the OD600 absorbance was inactive: 0.673. With `Cc1cc(C)cc(OP(C)(=O)Nc2ccccn2)c1` (stereo unspecified) the OD600 absorbance was inactive: 0.706. For `Cc1ccc(NCCc2c([N+](=O)[O-])cc([N+](=O)[O-])cc2[N+](=O)[O-])cc1`, the OD600 absorbance was inactive: 0.637. With `CCOP(=O)(Nc1cccc2ccccc12)OCC` the OD600 absorbance was inactive: 0.659. For `CCOP1(=S)c2c(C)nn(CCC#N)c2N=C(c2ccccc2F)N1C` (stereo unspecified), the OD600 absorbance was inactive: 0.626. For `O=C(O)c1cccc(Nc2c([N+](=O)[O-])cc([N+](=O)[O-])cc2[N+](=O)[O-])c1`, the OD600 absorbance was inactive: 0.691. In the case of `O=P(Nc1nccs1)(c1ccccc1)c1nc2ccccc2s1` (stereo unspecified), the OD600 absorbance is reported as inactive: 0.58. In the case of `O=P(Nc1nccs1)(Oc1ccccc1)Oc1ccccc1`, the OD600 absorbance is reported as inactive: 0.663. With `Nc1ccccc1[As](=O)(O)c1ccccc1` the OD600 absorbance was inactive: 0.704. With `O=C(O)COc1ccc([As](=O)(O)O)cc1[N+](=O)[O-]` the OD600 absorbance was inactive: 0.664. With `NC(=O)Nc1ccc([As](=O)(O)O)cc1` the OD600 absorbance was inactive: 0.682. With `CN(C)C(=O)c1cc([N+](=O)[O-])cc2c1-c1c(cc([N+](=O)[O-])cc1[N+](=O)[O-])C2=O` the OD600 absorbance was inactive: 0.627. In the case of `O=[N+]([O-])c1ccc2c(c1)nnn2O`, the OD600 absorbance is reported as inactive: 0.701. In the case of `CC1=NCCc2c1[nH]c1ccccc21.O=[N+]([O-])c1cc([N+](=O)[O-])c(O)c([N+](=O)[O-])c1`, the OD600 absorbance is reported as inactive: 0.648. In the case of `Cc1ccc(NC(=NP(=O)(N2CCOCC2)N2CCOCC2)N2CCOCC2)cc1`, the OD600 absorbance is reported as inactive: 0.71. For `N#CCCN(C(=O)COC(=O)C(O)(c1ccccc1)c1ccccc1)c1ccc(F)cc1`, the OD600 absorbance was inactive: 0.682. In the case of `CCOP1(=S)c2c(C)nn(CCC#N)c2N=C(c2ccc(F)cc2)N1C` (stereo unspecified), the OD600 absorbance is reported as inactive: 0.692. With `COc1cc(C2NCCC3(OCCO3)C2(C)C)cc(OC)c1OC.O=[N+]([O-])c1cc([N+](=O)[O-])c(O)c([N+](=O)[O-])c1` (stereo unspecified) the OD600 absorbance was inactive: 0.659. With `Cc1nn(-c2ccccc2)c2c1P(=O)(N1CCOCC1)N(C)C(c1ccccc1)=N2` (stereo unspecified) the OD600 absorbance was inactive: 0.673. For `CC1CCC(C(C)C)C(OP(=O)(Nc2ccccn2)c2ccccc2)C1` (stereo unspecified), the OD600 absorbance was inactive: 0.607. With `Cc1ccc(C(=O)OC2CN3CCC2CC3)cc1` (stereo unspecified) the OD600 absorbance was inactive: 0.648. In the case of `O=C(/C=C/c1ccccc1)OC1CN2CCC1CC2` (stereo unspecified), the OD600 absorbance is reported as inactive: 0.658. With `CCCC1OP(=O)(Nc2ccccc2)OCC1CC` (stereo unspecified) the OD600 absorbance was inactive: 0.724. In the case of `O=[N+]([O-])c1cc([N+](=O)[O-])c(Nc2nnnn2CCO)c([N+](=O)[O-])c1`, the OD600 absorbance is reported as inactive: 0.687. In the case of `CN(C)C1(CNC(=O)c2ccc(S(C)(=O)=O)cc2)CCCCC1`, the OD600 absorbance is reported as inactive: 0.692. In the case of `CCOC(=O)C(CC)C1=NC(C)(C)Cc2ccccc21.O=[N+]([O-])c1cc([N+](=O)[O-])c(O)c([N+](=O)[O-])c1` (stereo unspecified), the OD600 absorbance is reported as inactive: 0.668. For `O=P1(Nc2ncccn2)COc2ccccc2OC1`, the OD600 absorbance was inactive: 0.699. For `COc1ccccc1OP(C)(=O)Nc1c(C)cccc1C` (stereo unspecified), the OD600 absorbance was inactive: 0.688. With `CN1CCCCC1COC(=O)C1(O)c2ccccc2CCc2ccccc21` (stereo unspecified) the OD600 absorbance was inactive: 0.714. With `O=P1(Nc2ccc(Br)cn2)COc2ccccc2OC1` the OD600 absorbance was inactive: 0.677. In the case of `NS(=O)(=O)c1cccc(NC(=O)COC(=O)C(O)(c2ccccc2)c2ccccc2)c1`, the OD600 absorbance is reported as inactive: 0.663. In the case of `O=[As](O)(c1cccs1)c1cccs1`, the OD600 absorbance is reported as inactive: 0.694. For `Cc1ccc(OCC(=O)OC2CN3CCC2CC3)cc1` (stereo unspecified), the OD600 absorbance was inactive: 0.73. In the case of `CP(=O)(Nc1ccc(SC(F)(F)F)cc1)Oc1ccccc1` (stereo unspecified), the OD600 absorbance is reported as inactive: 0.661. In the case of `Nc1cccc([As](=O)(O)c2ccccc2)c1`, the OD600 absorbance is reported as inactive: 0.672. In the case of `CCCOc1ccc(NP(C)(=O)Oc2ccc(Cl)cc2)cc1` (stereo unspecified), the OD600 absorbance is reported as inactive: 0.7. In the case of `CCOP(=O)(Nc1ccc(C)cn1)OCC`, the OD600 absorbance is reported as inactive: 0.605. For `O=P1(Nc2ccccn2)COc2ccccc2OC1`, the OD600 absorbance was inactive: 0.713. For `O=[N+]([O-])c1cc([N+](=O)[O-])c(-n2nnc3ccccc32)c([N+](=O)[O-])c1`, the OD600 absorbance was inactive: 0.703. With `Clc1n[nH]nc1-c1nn[nH][15n]1` the OD600 absorbance was inactive: 0.693. For `CC(C)(C)C(=O)NC(Sc1ncccn1)C(Cl)(Cl)Cl` (stereo unspecified), the OD600 absorbance was inactive: 0.624. In the case of `COc1ccccc1CNC(=O)COC(=O)C(O)(c1ccccc1)c1ccccc1`, the OD600 absorbance is reported as inactive: 0.688. With `O=[N+]([O-])c1cc([N+](=O)[O-])c(-c2cnn(-c3ccccc3)c2)c([N+](=O)[O-])c1` the OD600 absorbance was inactive: 0.606. For `O=[As](O)(c1ccccc1Br)c1ccccc1Br`, the OD600 absorbance was inactive: 0.678. In the case of `Cc1nc2ccc3ccccc3c2s1.O=[N+]([O-])c1cc([N+](=O)[O-])c(O)c([N+](=O)[O-])c1`, the OD600 absorbance is reported as inactive: 0.695. With `CC1(CBr)Cn2c(nc3ccccc3c2=O)S1` (stereo unspecified) the OD600 absorbance was inactive: 0.637. In the case of `CC1OP(=O)(Oc2ccccc2)C(O)C(O)C1N=[N+]=[N-]` (stereo unspecified), the OD600 absorbance is reported as inactive: 0.721. For `Cc1cccc(C)c1OP(C)(=O)Nc1ccc(SC(F)(F)F)cc1` (stereo unspecified), the OD600 absorbance was inactive: 0.68. With `CP(=O)(Nc1ccc(SC(F)(F)F)cc1)Oc1ccc(Cl)cc1` (stereo unspecified) the OD600 absorbance was inactive: 0.6.
